Reference: paper PMC5559549
Protein sequences can lack the tags named with them.

Molecular target: T1, OmpR-His6 (OmpR-P) (UniProt P74982)
T1 sequence (looked up): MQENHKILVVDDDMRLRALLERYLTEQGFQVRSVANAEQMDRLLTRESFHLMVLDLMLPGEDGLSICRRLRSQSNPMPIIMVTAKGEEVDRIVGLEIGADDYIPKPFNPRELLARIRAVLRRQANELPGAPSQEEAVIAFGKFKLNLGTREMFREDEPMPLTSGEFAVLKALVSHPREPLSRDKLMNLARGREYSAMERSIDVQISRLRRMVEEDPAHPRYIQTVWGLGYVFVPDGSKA
Experiment: EMSA
Conditions: OmpR phosphorylated (acetyl phosphate), EMSA with 0-0.667 uM OmpR-P, 5% native polyacrylamide gel, ethidium bromide stain, pH and temperature not given (as in Nieckarz et al., 2016), recombinant protein, residues 1-239, protein details: His6, probe letters rebuilt from the primers and the genome

Sequence	binding result (shift clear at 0.167 uM)	binding result (shift at 0.333 uM, slightly lower affinity than kdgM1 and kdgM2)
ACTCTAGATGTGTTAGCTTCCCTCACTGGACCCGAATTGCTAACTTGATTTGTGCTTAATCACTGGGCTTTAGTCGAATATCAGTATTTTCATCTAAATAGGAACGACCCAAATATTATCCTCTCCTATATTAAATAAAAATAGATTTTAATCTAAAATACCCACTTCGCCATACTTTGGTGTGTATTGATTGCCAAATTATCCTCTGCGAAAATAACGTTATTATATAAAAGTGATTAAAACCAACAATAATACCGAAAAGAAAATATTCGACTGACATCTATTTTATTTATTCAGCCACATATACAATATTAACACCTACCGAGTCAAGACTATTTAATTCGAAGATGATCCCCTTCGAAATAGTCCCTATCCCTTGCTATCTCTAGGCTAGAACAAAAAACTTACAGTGCCAGTGCATTAGTCAAAACTATTTACTTTGAACCTTGTCACATAAATGGATATTGGCTCTATTAATTTCTAACTATTAGTCATGGATCTCGGAACTCCCGGGGT (double strand) [kdgM2-pelP-sghX promoter fragment]	binds	–
ACCTATTTCCCGTTCTTCACCCAATGCTTGTAAGATGCCAAAAACTTTCAGAACCGACGAAACAGAGTCGGGCTGTTTATCTAAATCTGCAATAGCCATTTTTTGGTTACCCTACTCAGTTTTCTGTGTTTCATAAAACAATTTGTTTTAAAAAAAATAGAACAGTGGTTTTATTATAAAGGGAAGTCGCGAGACTGTGCAATAAACCAATGTGAATAATCGGATAAAAGCCTTGCAGACAGCAAATTAGCCTCTTTCCATGAAAGAGGCTAGTGCAAAATTCAACTATTTCCAGACTGATTCAGGCAATGTGGCTAAATATAGTGCTGGTTTACCGTGAACATCAGAGGTAAAGAGGATTTGCTTATCATCGGGTGTAAAGGATGGATGTGGATGTGTTACCTGGCGGTCACCTTCAAACACCTTCCATGAGGTGTCGTG (double strand) [kdgR promoter fragment]	–	binds
TGTCTAGAATCCTTCTGTTGCCGGTTTAAATATGGCTCTGGAATTGCCACATAAAATGACAACCTCACCATACTTTGATGACCCGCAAATTGTTTCACTGTTCGGTGATGCAATTCAATATATCGATTATGGCCAGAAGACCGTGCAAGAAACTGCAGAATACTTTAACAAACAAGGTGATCGTATTCTGAAACGCGCTATGCGTTAATAAATTAATTTAACTTAAGTATCTATTAAACCCTGCCATTAATTTGGCGGGGTTCTTTTGTTTTATAGCCATAAAATAATAACCAACCAGACAGACATCACAATTTAATATCTGTTTAAAAAAAGAATCATTAAGACAGATCTGGATCACATAAATATTTAATAATATAAATAGAATATGTATTCACAATAAATGAAACATTGTTTCTTTGTTGTCGGAATTGTTTTTCACTCGTGTGTTGATTTTTTATAGATTTGTTAATGACTTTTGATTTAAATAACCATAACCCTGGGATTATATAAAAATGAAATTTAAATTACTGACTCTGGCAGTGGCATCTGTAACCCGGGCA (double strand) [kdgM1 promoter fragment]	binds	–
